Measurements taken from US20200024639.

Target: HA-NanoLuc-VAMP2, P63027

B1: botulinum neurotoxin type B (protein)
chain: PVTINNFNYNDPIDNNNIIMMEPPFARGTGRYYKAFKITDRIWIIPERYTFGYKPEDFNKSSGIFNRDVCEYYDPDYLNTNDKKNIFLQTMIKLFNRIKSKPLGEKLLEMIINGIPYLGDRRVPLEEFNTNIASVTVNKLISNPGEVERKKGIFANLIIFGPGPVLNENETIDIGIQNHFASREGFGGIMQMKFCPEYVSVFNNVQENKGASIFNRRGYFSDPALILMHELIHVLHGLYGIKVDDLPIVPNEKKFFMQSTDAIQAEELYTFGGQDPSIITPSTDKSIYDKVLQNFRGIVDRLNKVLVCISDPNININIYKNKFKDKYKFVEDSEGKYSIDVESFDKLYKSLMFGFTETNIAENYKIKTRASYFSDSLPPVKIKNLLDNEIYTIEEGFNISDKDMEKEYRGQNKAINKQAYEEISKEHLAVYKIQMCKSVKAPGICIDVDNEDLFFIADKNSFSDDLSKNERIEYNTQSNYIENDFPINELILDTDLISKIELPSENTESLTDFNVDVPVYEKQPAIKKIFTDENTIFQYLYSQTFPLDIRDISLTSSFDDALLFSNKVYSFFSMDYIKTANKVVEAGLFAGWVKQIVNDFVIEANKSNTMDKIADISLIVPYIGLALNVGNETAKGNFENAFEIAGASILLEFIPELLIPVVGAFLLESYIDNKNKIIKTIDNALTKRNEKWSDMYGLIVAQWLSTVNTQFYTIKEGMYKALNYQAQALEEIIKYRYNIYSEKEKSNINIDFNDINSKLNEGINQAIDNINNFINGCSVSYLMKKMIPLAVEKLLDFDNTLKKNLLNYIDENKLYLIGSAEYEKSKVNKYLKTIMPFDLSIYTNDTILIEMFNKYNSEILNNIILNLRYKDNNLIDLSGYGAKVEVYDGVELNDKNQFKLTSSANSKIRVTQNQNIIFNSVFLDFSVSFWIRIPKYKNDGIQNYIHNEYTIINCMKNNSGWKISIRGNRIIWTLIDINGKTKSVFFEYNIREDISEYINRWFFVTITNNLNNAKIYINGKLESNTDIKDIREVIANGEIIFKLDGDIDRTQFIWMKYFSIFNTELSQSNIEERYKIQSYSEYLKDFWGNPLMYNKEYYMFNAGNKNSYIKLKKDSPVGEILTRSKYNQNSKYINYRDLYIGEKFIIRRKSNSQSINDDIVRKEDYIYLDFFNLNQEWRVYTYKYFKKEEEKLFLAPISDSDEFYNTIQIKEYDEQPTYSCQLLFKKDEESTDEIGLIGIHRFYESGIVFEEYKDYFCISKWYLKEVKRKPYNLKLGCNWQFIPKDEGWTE
- lowest toxin concentration with cleavage above the baseline, NanoLuc ELISA assay: detect VAMP cleavage by BoNT/B above the baseline down to 30 pM
